PubChem BioAssay AID624099 – ICCB-Longwood – 2012
Test: 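Human genes that papillomavirus E2 requires to repress the HPV18 LCR promoter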 (primary screen). System: human C33A cervical carcinoma cells (HPV-negative) stably expressing BPV1 E2 and an HPV18 LCR luciferase reporter. Reagent: siRNA pool against human genes, 40 nM. Timing: 72 h. Measurement: 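HPV18 LCR reporter light per well, converted to plate-wise z-scores that exclude control wells, and averaged over triplicate plates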. Direction: mean z-score and z-score: higher = stronger reporter signal, weaker E2 silencing. Rule for the call: 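Hit if mean z-score reaches 2 and two or more of three replicate z-scores also reach 2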.
Shown is an unselected part of about 21,000 reagents tested. 497 of all reagents (2.4%) count as active. 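Higher z means weaker E2 silencing; only reporter increases were scored, and knock-downs that hurt cell survival may mask genuine repressor factors.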 Unmarked entries are inactive. The numbers tell different reagents against one gene apart.

| target gene | reagent | mean z-score | z-score, replicate A | z-score, replicate B | z-score, replicate C |
| --- | --- | --- | --- | --- | --- |
| ZKSCAN5 (zinc finger with KRAB and SCAN domains 5) | 1 | 0.85 | 0.63 | 1.06 | 0.88 |
| LINC01121 (long independently transcribed non-coding RNA 1121) | 1 | 0.29 | 0.68 | -0.2 | 0.39 |
| PITX1 (paired like homeodomain 1) | 1 | 0.3 | 0.59 | 0.18 | 0.13 |
| POU2AF2 (POU class 2 homeobox associating factor 2) | 1 | 0.37 | 0.23 | 0.71 | 0.17 |
| PPIAP59 (peptidylprolyl isomerase A pseudogene 59) | 1 | 0.67 | 0.5 | 0.45 | 1.06 |
| NGLY1 (N-glycanase 1) | 1 | -1.38 | -1.33 | -1.48 | -1.33 |
| GANAB (glucosidase II alpha subunit) | 1 | 0.46 | 0.5 | 0.13 | 0.74 |
| RAMP3 (receptor activity modifying protein 3) | 1 | -0.37 | -0.23 | -0.41 | -0.46 |
| GOLGA2P10 (GOLGA2 pseudogene 10) | 1 | -2.09 | -1.9 | -1.9 | -2.49 |
| TBC1D15 (TBC1 domain family member 15) | 1 | 0.29 | 0.38 | 0.4 | 0.07 |
| NBPF9 (NBPF member 9) | 1 | -0.4 | -0.31 | -0.74 | -0.15 |
| EGFEM1P (EGF like and EMI domain containing 1, pseudogene) | 1 | 0.49 | 0.58 | 0.47 | 0.42 |
| EGFEM1P (EGF like and EMI domain containing 1, pseudogene) | 2 | -0.08 | -0.06 | -0.07 | -0.12 |
| EGFEM1P (EGF like and EMI domain containing 1, pseudogene) | 3 | 1.59 | 1.87 | 1.54 | 1.37 |
| VIL1 (villin 1) | 1 | 0.07 | -0.2 | 0.35 | 0.06 |
| HECTD4 (HECT domain E3 ubiquitin protein ligase 4) | 1 | 0.52 | 0.67 | 0.43 | 0.46 |
| HECTD4 (HECT domain E3 ubiquitin protein ligase 4) | 2 | 0.55 | 0.74 | 0.57 | 0.33 |
| LINC00242 (long independently transcribed non-coding RNA 242) | 1 | 0.18 | 0.61 | -0.25 | 0.18 |
| LRPPRC (leucine rich pentatricopeptide repeat containing) | 1 | 1.14 | 1.22 | 1.27 | 0.93 |
| MTURN (maturin, neural progenitor differentiation regulator homolog) | 1 | 1.12 | 1.21 | 1.25 | 0.9 |
| ANXA11 (annexin A11) | 1 | -0.79 | -1.47 | -0.69 | -0.22 |
| PTPN13 (protein tyrosine phosphatase non-receptor type 13) | 1 | 0.2 | 0.38 | 0.08 | 0.15 |
| AOAH (acyloxyacyl hydrolase) | 1 | 0.05 | 0.17 | 0 | -0.03 |

Records above whose gene name starts with A or a:
| target gene | reagent | mean z-score | z-score, replicate A | z-score, replicate B | z-score, replicate C |
| --- | --- | --- | --- | --- | --- |
| ANXA11 (annexin A11) | 1 | -0.79 | -1.47 | -0.69 | -0.22 |
| AOAH (acyloxyacyl hydrolase) | 1 | 0.05 | 0.17 | 0 | -0.03 |
